In test [1] the target is T1, TMV CP discs (Tobacco mosaic virus, UniProt P69687). As to conditions: read-out: Kd to TMV CP discs (Fluo.).
Another test deals with TMV. As to the kind of experiment: Curative activity against TMV, half leaf. As to conditions: for Curative activity against TMV: half leaf.
The target in test [2] is T1, TMV CP discs. The settings on record: read-out: Kd to TMV CP discs (ITC).
For test [3], the target named is T2, TMV CP mutant (Tobacco mosaic virus, UniProt P69687, R72G/S16G/S50G/Y73G). As to conditions: read-out: Kd mutant (ITC).
Test [4] deals with T2, TMV CP mutant. As to conditions: read-out: Kd mutant (Fluo.).

The chains behind the UniProt entries cited, without tags or fusion partners. Where a name states a change or a piece, a line headed by the entry shows the natural chain unless it says otherwise.
UniProt P69687, whole entry: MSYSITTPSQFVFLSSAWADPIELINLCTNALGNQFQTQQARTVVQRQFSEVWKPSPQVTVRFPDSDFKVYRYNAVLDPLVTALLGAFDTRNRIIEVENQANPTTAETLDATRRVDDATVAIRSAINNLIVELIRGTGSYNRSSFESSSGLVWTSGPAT
UniProt P69687, whole entry S16G/S50G/R72G/Y73G: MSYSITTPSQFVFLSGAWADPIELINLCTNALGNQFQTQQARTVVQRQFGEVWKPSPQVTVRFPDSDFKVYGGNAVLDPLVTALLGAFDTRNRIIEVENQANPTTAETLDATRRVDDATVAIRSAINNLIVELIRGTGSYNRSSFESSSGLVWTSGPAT

The values below come from publication PMC5669903.

Where two headings read alike, the source gives them in different places.

Turning to `CC1NC(C(=O)N/N=C/c2ccc(Cl)cc2)Cc2c1[nH]c1ccccc21` (stereo not shown), the Kd (commonly the free concentration of one partner at which half of the binding sites on the other are occupied at equilibrium, for simple one-to-one binding) was 1.25 µM at TMV CP discs [1], 31.2 µM at TMV CP discs [2], 133 µM at TMV CP mutant [3] and 25.6 µM on TMV CP mutant [4]. The figures for the “Curative activity against TMV” value in the test on TMV (100 μg/mL) and with TMV (500 μg/mL) were 30.8% and 71.5%, respectively. Also, the “anti-TMV activity in words” value in the test on TMV (500 μg/mL, vivo experiment) is given as “significant anti-TMV activities”.
